Compound potency records, mixed from different reports. Data source: NIAID ChemDB in PubChem.

All rows: tests in culture; agent: Candida albicans

A number after MIC or MFC names an inhibition level or a share of isolates. An empty or dashed field is not shown. Neighbouring rows are from separate reports. ECn is the concentration giving n% inhibition of infection, replication or growth.

| smiles | method | read-out | strain or isolate | value |
|---|---|---|---|---|
| CCC(c1ccc(OC)cc1)C(c1ccc(OC)cc1)n1cncn1 |  | MIC90 | 28 strains | >256 µg/mL |
| CC(O)C1NC(=O)C(CCc2ccc(O)cc2)NC(=O)C2C[C@@H](O)CN2C(=O)C(C(C)O)NC(=O)[C@@H](NC(=O)c2ccccc2)CCCNC(=O)C2C[C@H](N)CN2C1=O |  | MIC | ATCC 62376 | >100 µg/mL |
| C[C@@H](c1ncncc1F)[C@](O)(Cn1cncn1)c1ccc(F)cc1F |  | MIC50 | 32 strains | 0.06 µg/mL |
| C[C@@H](SC1COC(/C=C/C=C/c2ccc(C#N)cc2F)OC1)[C@](O)(Cn1cncn1)c1ccc(F)cc1F |  | MIC | CAL-0002 | 8 µg/mL |
| CCOC(=O)c1c(C)[nH]c(O)c1C=Nc1ccc(Cl)cc1 |  | MIC |  | >25 µg/mL |
| Oc1ccc2cc1Oc1ccc(cc1)CCc1ccc(c(O)c1)-c1c(O)cccc1CC2 | broth dilution | MIC80 | BWP17-DPP3-GFP | 16 µg/mL |
| O=[N+]([O-])c1ccc(-c2c[nH]cc2C(c2ccc(Cl)cc2Cl)n2ccnc2)cc1 |  | MIC |  | 4.5 µg/mL |
| Cc1ccc(C(C)C)cc1O |  | MLC | M1 | 0.32 µg/mL |
| CN[C@@H]1[C@H](O[C@@H]2O[C@H](CO)[C@@H](O)[C@H](S(=O)(=O)O)[C@H]2O)[C@@H](O)[C@H](O[C@H]2c3cc(C)c(C(=O)N[C@H](CO)C(=O)O)c(O)c3-c3c(cc4c(c3O)C(=O)c3cc(OC)cc(O)c3C4=O)[C@@H]2O)O[C@@H]1C |  | MIC | ATCC 38247 | 6.3 µg/mL |
| C=C(CN(C)C)C(=O)c1ccccc1 |  | MIC |  | 128 µg/mL |
| CCCCCCCCN[C@H]1C[C@H]2C(=O)NCCC[C@H](NC(=O)c3ccc(-c4ccc(-c5ccc(OCCCCC)cc5)cc4)cc3)C(=O)N[C@@H]([C@@H](C)O)C(=O)N3C[C@H](O)C[C@H]3C(=O)N[C@@H](CCc3ccc(O)cc3)C(=O)N[C@@H]([C@@H](C)O)C(=O)N2C1 |  | MIC | ATCC CCH442 | 12.5 µg/mL |
| CCOC(=O)c1c(C)[nH]c(O)c1C=O |  | MIC |  | >100 µg/mL |
| C=CCc1ccc(OC)c(OC)c1 | turbidity | MIC90 | 3021 | 350 µg/mL |
| CCCCCCCCON1CCN(c2ccc(-c3ccc(C(=O)N[C@H]4CCCNC(=O)C5C[C@H](N)CN5C(=O)C(C(C)O)NC(=O)C(CCc5ccc(O)cc5)NC(=O)C5C[C@@H](O)CN5C(=O)C(C(C)O)NC4=O)cc3)cc2)CC1 |  | MIC | ATCC CCH442 | 0.2 µg/mL |
| COc1ccc(C(Cc2cccc(F)c2)n2ccnc2)cc1 |  | MIC |  | 51 µg/mL |
| CCC(c1ccc(Cl)cc1)C(c1ccc(OC)cc1)n1ccnc1 |  | MIC50 | 28 strains | 32 µg/mL |
| CCCCCOc1ccc(-c2ccc(-c3ccc(C(=O)N[C@H]4CCCNC(=O)[C@@H]5C[C@H](N)CN5C(=O)[C@H](CCCN=C(N)N)NC(=O)C(CCc5ccc(O)cc5)NC(=O)[C@@H]5C[C@@H](O)CN5C(=O)[C@H]([C@@H](C)O)NC4=O)cc3)cc2)cc1 |  | MIC | ATCC 10231 | 0.39 µg/mL |
| C=C(CN1CCN(C)CC1)C(=O)c1ccc(OC)cc1 |  | EC50 |  | 8.05 µM |
| CCCCCOc1ccc(-c2ccc(-c3ccc(C(=O)N[C@H]4CCCNC(=O)C5C[C@H](N=[N+]=[N-])N5C(=O)C(C(C)O)NC(=O)C(CCc5ccc(O)cc5)NC(=O)C5C[C@@H](O)CN5C(=O)C(C(C)O)NC4=O)cc3)cc2)cc1 |  | MIC | ATCC 62376 | 3.12 µg/mL |
| C=CCn1cc(-c2ccc(Cl)cc2)c(C(c2ccccc2)n2ccnc2)c1 |  | MIC |  | 0.019 µg/mL |
| C[C@@H](c1ncncc1F)[C@](O)(Cn1cncn1)c1ccc(F)cc1F |  | MIC | Isolate 580 | 0.03 µg/mL |
| Cc1ccc(C(c2cn(C)cc2-c2ccc(Cl)c(Cl)c2)n2ccnc2)cc1 |  | MIC |  | 0.19 µg/mL |
| COc1ccc(C(C(Cc2ccc(Cl)cc2Cl)c2ccc(Cl)cc2)n2ccnc2)cc1 |  | MIC90 | 28 strains | 16 µg/mL |
| CCOC(=O)c1c(C)[nH]c(O)c1C=Nc1ccc([N+](=O)[O-])cc1 |  | MIC |  | >100 µg/mL |
| C=C(CN1CCN(C)CC1)C(=O)c1ccccc1 |  | EC50 |  | 2.32 µM |
| CCC(c1ccc(Cl)cc1)C(c1ccc(OC)cc1)n1cncn1 |  | MIC50 | 28 strains | 32 µg/mL |
| COC1CC2CCC(C)C(O)(O2)C(=O)C(=O)N2CCCCC2C(=O)OC(C(C)CC2CCC(O)C(OC)C2)CC(=O)C(C)/C=C(\C)C(O)[C@@](OC)(N(O)C(=O)OCC(C)C)C(=O)C(C)CC(C)/C=C/C=C/C=C/1C |  | MFC | TOR1-1/TOR1 | >100 µg/mL |
| COc1ccc(C(Cc2ccc(Cl)cc2Cl)C(c2ccc(OC)cc2)n2cncn2)cc1 |  | EC50 | 28 strains | >256 µg/mL |
| Fc1ccc(C(c2ccn(-c3ccccc3)c2)n2ccnc2)cc1 |  | MIC |  | 1.8 µg/mL |
| CCC(C)CC(C)CCCCCCCCC(=O)N[C@H]1C[C@@H](O)[C@@H](OCCN)NC(=O)[C@@H]2[C@@H](O)CCN2C(=O)[C@H]([C@@H](O)CCN)NC(=O)[C@H]([C@H](O)[C@@H](O)c2ccc(O)cc2)NC(=O)[C@@H]2C[C@@H](O)CN2C(=O)[C@H]([C@H](C)O)NC1=O |  | MIC50 | Fluconazole-resistant | 0.01 µg/mL |
| Cn1cc(-c2cccc3ccccc23)c(C(c2ccc(Cl)cc2Cl)n2ccnc2)c1 |  | MIC |  | 0.94 µg/mL |
| COC1CC2CCC(C)C(O)(O2)C(=O)C(=O)N2CCCCC2C(=O)OC(C(C)CC2CCC(O)C(OC)C2)CC(=O)C(C)/C=C(\C)C(O)C(OC)C(=O)C(C)C[C@](C)(N(O)C(=O)NN2CCCCC2)/C=C/C=C/C=C/1C |  | MIC | RBP1/RBP1 | >100 µg/mL |
| COc1ccc(C(C(Cc2ccc(Cl)cc2Cl)c2ccc(Cl)cc2)n2cncn2)cc1 |  | EC50 | 28 strains | >256 µg/mL |
| COc1ccc(C(Cc2ccc([N+](=O)[O-])cc2)n2ccnc2)cc1 |  | MIC |  | 17 µg/mL |

The last 3 rows once more:

smiles | method | read-out | strain or isolate | value
COC1CC2CCC(C)C(O)(O2)C(=O)C(=O)N2CCCCC2C(=O)OC(C(C)CC2CCC(O)C(OC)C2)CC(=O)C(C)/C=C(\C)C(O)C(OC)C(=O)C(C)C[C@](C)(N(O)C(=O)NN2CCCCC2)/C=C/C=C/C=C/1C |  | MIC | RBP1/RBP1 | >100 µg/mL
COc1ccc(C(C(Cc2ccc(Cl)cc2Cl)c2ccc(Cl)cc2)n2cncn2)cc1 |  | EC50 | 28 strains | >256 µg/mL
COc1ccc(C(Cc2ccc([N+](=O)[O-])cc2)n2ccnc2)cc1 |  | MIC |  | 17 µg/mL